A mixed list of measured activities; the numbers were collected in NIAID ChemDB.

Common to all: tests on isolated targets; species: Hepatitis C virus; target: NS3 protease; read-out: IC50

Conditions beyond the fields shown may differ between rows. ICn: concentration for n% inhibition. An empty or dashed field is not shown.

{"compound": "O=c1cccccc1O", "value": ">200 µM"}
{"compound": "CC1=CC(=O)N(Cc2ccccc2)C(=O)C1", "value": "47 µM"}
{"compound": "C=C[C@@H]1C[C@]1(NC(=O)[C@@H]1C[C@@H](Oc2cc(-c3ccccc3)nc3cc(CO)ccc23)CN1C(=O)[C@@H](N)C(C)(C)C)C(=O)O", "strain": "1b", "method": "radiometric", "value": "3 µM"}
{"compound": "CC(=O)N[C@H](C(=O)N[C@H](C(=O)N1C[C@H](Oc2ccccc2Br)CC1C(=O)NC1(C(=O)O)CC1)C(C)C)C1CCCCC1", "value": "25 µM"}
{"compound": "CC(C)c1ccc(CN2CCOCC2)c(O)c(=O)c1", "value": ">100 µM"}
{"compound": "CC[C@H](C)[C@@H](NC(=O)[C@@H](N)CC(=O)O)C(=O)N[C@@H](CC(C)C)C(=O)N[C@@H](CCC(=O)O)C(=O)N[C@@H](CC1CCCCC1)C(=O)N[C@@H](CS)C(=O)O", "value": "0.33 µM"}
{"compound": "O=c1c(Br)cc(Br)cc(Br)c1O", "value": "≥100 µM"}
{"compound": "O=C(O)c1cc(F)c(CCNC(=O)[C@H](CC(F)F)NC(=O)[C@H]2C[C@@H](C3CCCC3)CN2C(=O)[C@H](O)c2ccccc2)c(F)c1", "value": ">100 µM"}
{"compound": "CC(=O)N[C@H](C(=O)N[C@H](C(=O)N1C[C@H](Oc2ccc(F)cc2)CC1C(=O)NC1(C(=O)O)CC1)C(C)C)C1CCCCC1", "value": "100 µM"}
{"compound": "CC(C)C[C@H](NC(=O)[C@@H](CC(=O)O)NC(=O)[C@@H](N)CC(=O)O)C(=O)N[C@@H](CCC(=O)O)C(=O)N[C@@H](CC1CCCCC1)C(=O)N[C@@H](CS)C(=O)O", "value": "0.12 µM"}
{"compound": "CC(=O)N[C@H](C(=O)N[C@H](C(=O)N1C[C@H](Oc2cccc3cccnc23)CC1C(=O)NC1(C(=O)O)CC1)C(C)C)C1CCCCC1", "value": "250 µM"}
{"compound": "CC(C)C[C@H](NC(=O)[C@H](Cc1ccc([N+](=O)[O-])cc1)NC(=O)[C@@H](N)CC(=O)O)C(=O)N[C@@H](CCC(=O)O)C(=O)N[C@@H](CC1CCCCC1)C(=O)N[C@@H](CS)C(=O)O", "value": "0.24 µM"}
{"compound": "CC[C@H](NC(=O)[C@H](CC1CCCCC1)NC(=O)C(NC(=O)[C@H](CC(C)C)NC(=O)c1cnccn1)[C@@H](C)CC)C(=O)C(=O)NCC(=O)NS(=O)(=O)c1ccccc1", "value": "12 µM"}
{"compound": "CC(=O)N[C@H](C(=O)N[C@H](C(=O)N1C[C@H](Oc2ccc(I)cc2)CC1C(=O)NC1(C(=O)O)CC1)C(C)C)C1CCCCC1", "value": "10 µM"}
{"compound": "C=C(NC(=O)[C@H](CC1CCCCC1)NC(=O)[C@H](CCC(=O)O)NC(=O)[C@@H](NC(=O)[C@H](CCC(=O)O)NC(=O)[C@@H](N)CC(=O)O)C(c1ccccc1)c1ccccc1)C(=O)O", "value": "7.1 µM"}
{"compound": "CCCC[C@H](NC(=O)[C@H](CC(C)C)NC(=O)[C@@H](NC(=O)[C@](C)(Cc1ccccc1)NC(=O)[C@H](NC(=O)[C@H](CC(=O)O)NC(=O)CCC(=O)O)C(C)C)C(C)(C)C)C(=O)C(N)=O", "value": "0.02 µM"}
{"compound": "O=C(O)c1cc(F)c(CCNC(=O)[C@H](CC(F)F)NC(=O)[C@H]2C[C@@H](C3CCCC3)CN2C(=O)C(O)C2CC2)c(F)c1", "value": ">100 µM"}
{"compound": "C=C[C@@H]1C[C@]1(NC(=O)[C@@H]1C[C@@H](Oc2cc(-c3ccccc3)nc3cc(CO)ccc23)CN1C(=O)[C@H]1NCSC1(C)C)C(=O)O", "strain": "1b", "method": "radiometric", "value": "1.6 µM"}
{"compound": "CC(C)C[C@H](NC(=O)[C@H](CCC(=O)O)NC(=O)[C@@H](N)CC(=O)O)C(=O)N[C@@H](CCC(=O)O)C(=O)N[C@@H](CC1CCCCC1)C(=O)N[C@H](C(=O)O)C(C)C", "value": "4 µM"}

Repeating the first 2 entries:

compound | strain | method | value
O=c1cccccc1O |  |  | >200 µM
CC1=CC(=O)N(Cc2ccccc2)C(=O)C1 |  |  | 47 µM